Results from patent publication US10233206B2, “D-fagomine for the control of inflammatory processes related to an overactivation of the humoral immune response” (priority 2013, dated 2019).

Test: pH of organ culture supernatant

In the case of `OC[C@H]1NCC[C@@H](O)[C@@H]1O` (stereo in doubt) [D-fagomine, (2R, 3R, 4R)-2-hydroxymethylpiperidine-3,4-diol], the pH (E. coli + D-fagomine 50 μg/ml) is reported as 7.65, the pH (E. coli + D-fagomine 500 μg/ml) is reported as 7.59 and the pH (E. coli + D-fagomine 5000 μg/ml) is reported as 7.65.
